PMC10810714, “Antiretroviral Drug Exposure and Response in Obese and Morbidly Obese People With Human Immunodeficiency Virus (HIV): A Study Combining Modelling and Swiss HIV Cohort Data” (Clinical Infectious Diseases: An Official Publication of …, 2023)

Tests used:
[1] = Observed pharmacokinetics of antiretrovirals in nonobese and obese individuals (SHCS therapeutic drug monitoring data and literature studies, noncompartmental analysis); conditions: standard oral dose at steady state, SHCS TDM data with or without literature data
Description: We took several steps to analyse the impact of obesity on the ARVs exposure and response. First, we implemented our in-house PBPK model with our recently published virtual White obese population to simulate the pharmacokinetics of ARVs in nonobese and obese individuals. Next, we verified the simulations against the TDM data collected during the follow-up visits of the SHCS (multiple drug levels per individual were allowed [more information on the SHCS in the homonymous section in the Supplementary Material]). We then applied the verified model to extrapolate the pharmacokinetics across different obesity classes. Finally, the clinical relevance of obesity-related changes on drug response was evaluated by analyzing HIV viral load and the corresponding TDM values in obese and nonobese individuals in the SHCS.
All ARV drug models, except for doravirine (Supplementary Table 1), were previously developed and verified to predict the pharmacokinetics in healthy and elderly PWH [6, 12]. […] The TDM data were excluded if the participant’s age was younger than 20 or older than 50 years to avoid the age-related confounding effect on the pharmacokinetics, if a nonstandard ARV dosage was used, and if concurrent medications with inhibitory or inducing effects were used. The pharmacokinetic parameters including peak plasma concentration (Cmax), area under the curve to time t (AUCt), and trough concentration (Cτ) were derived from the TDM data using noncompartmental analysis.
A literature search was also performed to identify pharmacokinetic studies with ARVs conducted in obese and nonobese individuals. Data on the study design, characteristics of the participants, and pharmacokinetic results were collected. […] Available concentration-time profiles were digitalized using GetData Graph Digitizer V.2.26. The virtual trials were conducted by matching the participants’ demographics (eg, age, proportion of females, and BMI) and the ARV dosing regimen (Supplementary Table 2). The models were considered verified if the simulations were within 2-fold of observed data.
The Swiss HIV Cohort Study (SHCS) is an ongoing, nationwide, multicenter, clinic-based prospective cohort study in Switzerland with continuous enrollment and follow-up (twice a year) of people with HIV (PWH). Socio-demographic, clinical and laboratory data are recorded in detail. […] The collection of therapeutic drug monitoring (TDM) data in the SHCS database was initiated in 1998. All available TDM data for each evaluated antiretroviral drug were extracted from the SHCS database representing 6210 and 575 data points for the verification of the simulations in non-obese and obese individuals, respectively.

[2] = tested on: HIV viral load; test: Drug response in obese versus nonobese participants in the SHCS (concentration below efficacy threshold and viral load >50 copies/mL)
Protocol: The viral load was analyzed in conjunction with the TDM data to evaluate whether a decrease in ARV exposure in obese PWH is associated with a viral load of more than 50 copies/mL (the viral load measured on the date of the TDM assessment was considered for this evaluation).

[3] = nonobese (BMI range per drug), GM
[4] = obese (BMI >=30, range per drug), GM (mean for etravirine)

darunavir/ritonavir
AUCt, observed, nonobese individuals [1, 3]: 73 282 ng*h/mL
Cmax, observed, nonobese individuals [1, 3]: 6442 ng/mL
Cτ, observed, nonobese individuals [1, 3]: 1532 ng/mL
t1/2, observed, nonobese individuals [1, 3]: 13.4 h
AUCt, observed, obese individuals [1, 4]: 58 641 ng*h/mL
Cmax, observed, obese individuals [1, 4]: 4367 ng/mL
Cτ, observed, obese individuals [1, 4]: 1556 ng/mL
t1/2, observed, obese individuals [1, 4]: 12.8 h
% PWH with concentration below efficacy threshold ([2]; BMI 18.5–30 kg/m^2): 4.3%
% PWH with concentration below efficacy threshold ([2]; BMI >30 kg/m^2): 0%
